Biological target: ESAT-6 with a C-terminal hexahistidine tag, produced by recombinant BCG::2F9-EsxA-HIS (M. tuberculosis, UniProt P0A565 2-95)

B1: 10 kDa culture filtrate protein (CFP-10), encoded by esxB (other)
chain: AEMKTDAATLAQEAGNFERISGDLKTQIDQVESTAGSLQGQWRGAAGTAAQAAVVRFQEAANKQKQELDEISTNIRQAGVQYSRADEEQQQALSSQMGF
- binding result: binds

Source: patent publication US20070009547A1 (INSTITUT PASTEUR, published 2007)
